{"source": "patent US20180344813A1", "about": "“ENGINEERED POLYPEPTIDES HAVING ENHANCED DURATION OF ACTION WITH REDUCED IMMUNOGENICITY” (priority 2016, published 2018)", "tested_on": "CD3+ CD4+ T cells"}
{"substance": "tetanus toxoid [TT, reference compound]", "values": [{"measurement": "number of responding individuals", "value": 49}]}
